Article PMC11915811, “Conformational activation and disulfide exchange in HIV-1 Env induce cell-free lytic/fusogenic transformation and enhance infection” (Journal of Virology, 2025)

Test system: JRFL pseudovirus
Assay: Cell-free lysis of JRFL pseudovirus, p24 release detected by ELISA
Details: read-out: EC50 for lysis of JRFL pseudovirus by 1,000 nM entry inhibitor + dilutions of Trx1; entry inhibitor fixed at 1,000 nM, Trx1 serially diluted 1/2 from 1,000 nM (EC50 on Trx1 concentration); 2 h at 37°C; mean of three independent experiments ± SD

B1: Trx1: recombinant human thioredoxin-1, purchased from Cayman Chemical (protein)
chain: MVKQIESKTAFQEALDAAGDKLVVVDFSATWCGPCKMIKPFFHSLSEKYSNVIFLEVDVDDCQDVASECEVKCMPTFQFFKKGQKVGEFSGANKEKLEATINELV
- EC50: > 1000 nM
